Measurements reported in PubChem BioAssay AID624099 (ICCB-Longwood, 2012).

Screen: 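Human genes that papillomavirus E2 requires to repress the HPV18 LCR promoter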 (primary screen)
System: human C33A cervical carcinoma cells (HPV-negative) stably expressing BPV1 E2 and an HPV18 LCR luciferase reporter
Reagents: siRNA pool against human genes, 40 nM
Duration: 72 h
Measured: 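Per-well luciferase luminescence, z-scored on each plate against the plate mean and SD with control wells left out, then averaged across three replicate plates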
Reading the numbers: mean z-score and z-score: higher = stronger reporter signal, weaker E2 silencing
Hit rule: 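Mean z ≥ 2 together with z ≥ 2 in two or more of the three replicates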
Shown is an unselected part of about 21,000 deposited reagents. 497 of them (2.4%) count as active. 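Higher z means weaker E2 silencing; only reporter increases were scored, and knock-downs that hurt cell survival may mask genuine repressor factors.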

gene knocked down | mean z-score | z-score, replicate A | z-score, replicate B | z-score, replicate C | activity call
APP (GeneID 351) | -0.07 | -0.04 | -0.07 | -0.09 | inactive
SLC5A3 (GeneID 6526) | -0.73 | -0.53 | -0.95 | -0.71 | inactive
ERO1B (GeneID 56605) | -0.53 | -0.42 | -0.7 | -0.46 | inactive
SLC37A2 (GeneID 219855) | 0.26 | 0.24 | 0.38 | 0.14 | inactive
LOC389394 (retired record) (GeneID 389394) | 0 | 0 | 0.15 | -0.14 | inactive
HTN3 (GeneID 3347) | 1.02 | 0.7 | 1.06 | 1.31 | inactive
S100G (GeneID 795) | 1.42 | 1.21 | 1.44 | 1.62 | inactive
CYSRT1 (GeneID 375791) | 1.97 | 2.02 | 1.88 | 2.02 | inactive
TAB3 (GeneID 257397) | -0.35 | -0.04 | -0.27 | -0.74 | inactive
INGX (GeneID 27160) | -0.97 | -0.83 | -0.9 | -1.17 | inactive
KRT1 (GeneID 3848) | -1.04 | -0.77 | -1.11 | -1.23 | inactive
SLC38A6 (GeneID 145389) | 0.75 | 0.78 | 0.66 | 0.82 | inactive
ERP27 (GeneID 121506) | -0.17 | 0.08 | -0.18 | -0.42 | inactive
NUF2 (GeneID 83540) | -0.45 | -0.59 | -0.19 | -0.56 | inactive
DCAF10 (GeneID 79269) | 0.96 | 0.9 | 0.9 | 1.09 | inactive
LOC389506 (retired record) (GeneID 389506) | -1.01 | -1.44 | -1.01 | -0.58 | inactive
TNFAIP3 (GeneID 7128) | -0.94 | -1.13 | -0.72 | -0.97 | inactive
SKOR1 (GeneID 390598) | 0.51 | 0.7 | 0.12 | 0.71 | inactive
PHB1 (GeneID 5245) | 0.32 | 0.45 | 0.05 | 0.45 | inactive
KLHL15 (GeneID 80311) | -0.22 | -0.27 | -0.31 | -0.08 | inactive
ZNF226 (GeneID 7769) | -0.91 | -1.01 | -0.8 | -0.91 | inactive
TIMD4 (GeneID 91937) | -0.26 | -0.06 | -0.21 | -0.52 | inactive
IGFBP6 (GeneID 3489) | -0.8 | -0.16 | -1.49 | -0.74 | inactive
CDHR1 (GeneID 92211) | 1.71 | 1.62 | 1.65 | 1.87 | inactive
AURKB (GeneID 9212) | -0.4 | -0.34 | -0.58 | -0.26 | inactive
RPL8 (GeneID 6132) | 0.99 | 0.93 | 0.99 | 1.05 | inactive
ZIK1 (GeneID 284307) | 0.16 | -0.28 | 0.63 | 0.14 | inactive
LOC339746 (retired record) (GeneID 339746) | -0.73 | -0.87 | -0.43 | -0.9 | inactive
TM4SF5 (GeneID 9032) | 0 | -0.07 | 0.07 | 0 | inactive
CRHBP (GeneID 1393) | 0.58 | 0.19 | 0.69 | 0.84 | inactive
TNPO1 (GeneID 3842) | -0.07 | 0.08 | -0.2 | -0.09 | inactive
BTBD9 (GeneID 114781) | -0.65 | -0.56 | -0.6 | -0.79 | inactive
SH2D3C (GeneID 10044) | 2.41 | 2.34 | 2.3 | 2.58 | active
R3HCC1L (GeneID 27291) | 0.45 | 0.14 | 0.54 | 0.69 | inactive
UNK (GeneID 85451) | -0.32 | 0.12 | -0.34 | -0.73 | inactive
SALL4 (GeneID 57167) | 1.63 | 1.91 | 1.59 | 1.39 | inactive
LOC200493 (retired record) (GeneID 200493) | 1.85 | 1.68 | 1.9 | 1.97 | inactive
LOC389936 (retired record) (GeneID 389936) | -0.57 | -0.46 | -0.7 | -0.56 | inactive
PTPMT1 (GeneID 114971) | -1.03 | -0.79 | -1.28 | -1.03 | inactive
WDR13 (GeneID 64743) | -0.43 | -0.12 | -0.55 | -0.64 | inactive
LINC02245 (GeneID 400958) | 0.1 | 0.54 | -0.21 | -0.02 | inactive
GDPD2 (GeneID 54857) | 0.55 | 0.23 | 0.31 | 1.1 | inactive
ZNF674-AS1 (GeneID 401588) | -0.42 | -0.35 | -0.77 | -0.15 | inactive
ZNF137P (GeneID 7696) | 1.46 | 1.39 | 1.56 | 1.44 | inactive
CRYL1 (GeneID 51084) | 0.63 | 0.61 | 0.32 | 0.95 | inactive
TUBE1 (GeneID 51175) | -1.49 | -1.57 | -1.45 | -1.46 | inactive
OR8U1 (GeneID 219417) | 0.34 | 0.81 | 0.32 | -0.1 | inactive
FYB2 (GeneID 199920) | 1.16 | 1.04 | 1.35 | 1.09 | inactive
CLIC2 (GeneID 1193) | -0.21 | -0.12 | -0.2 | -0.31 | inactive
LIPJ (GeneID 142910) | 0.29 | -0.11 | 0.67 | 0.3 | inactive
XTBD1P1 (GeneID 391169) | 0.79 | 1.18 | 0.24 | 0.93 | inactive
OR6C6 (GeneID 283365) | -1.7 | -2.1 | -1.11 | -1.88 | inactive
OSBPL11 (GeneID 114885) | -1 | -1.22 | -0.58 | -1.2 | inactive
PHF3 (GeneID 23469) | 0.97 | 0.64 | 0.96 | 1.29 | inactive
SLX9 (GeneID 85395) | 0.91 | 1.04 | 0.68 | 1.01 | inactive
BMI1 (GeneID 648) | 0.07 | -0.03 | 0.18 | 0.07 | inactive
CHI3L1 (GeneID 1116) | -0.27 | -0.34 | -0.31 | -0.16 | inactive

8 entries from above, set out differently:
TAB3 (GeneID 257397) — mean z-score: -0.35; z-score, replicate A: -0.04; z-score, replicate B: -0.27; z-score, replicate C: -0.74; activity call: inactive
INGX (GeneID 27160) — mean z-score: -0.97; z-score, replicate A: -0.83; z-score, replicate B: -0.9; z-score, replicate C: -1.17; activity call: inactive
KRT1 (GeneID 3848) — mean z-score: -1.04; z-score, replicate A: -0.77; z-score, replicate B: -1.11; z-score, replicate C: -1.23; activity call: inactive
SLC38A6 (GeneID 145389) — mean z-score: 0.75; z-score, replicate A: 0.78; z-score, replicate B: 0.66; z-score, replicate C: 0.82; activity call: inactive
ERP27 (GeneID 121506) — mean z-score: -0.17; z-score, replicate A: 0.08; z-score, replicate B: -0.18; z-score, replicate C: -0.42; activity call: inactive
NUF2 (GeneID 83540) — mean z-score: -0.45; z-score, replicate A: -0.59; z-score, replicate B: -0.19; z-score, replicate C: -0.56; activity call: inactive
DCAF10 (GeneID 79269) — mean z-score: 0.96; z-score, replicate A: 0.9; z-score, replicate B: 0.9; z-score, replicate C: 1.09; activity call: inactive
LOC389506 (retired record) (GeneID 389506) — mean z-score: -1.01; z-score, replicate A: -1.44; z-score, replicate B: -1.01; z-score, replicate C: -0.58; activity call: inactive
